Compound potency records, mixed from different reports. Data source: NIAID ChemDB in PubChem.

All rows: growth or infection tests; species: Mycobacterium avium intracellulare; read-out: MIC

An empty or dashed field is not shown. Rows are shuffled and stem from different studies.

structure,strain,value
COc1cc(/C=N/N(C(=O)c2ccncc2)C(=O)c2cnccn2)ccc1O,ATCC 13950,>16 µg/mL
CC[C@H]1OC(=O)[C@H](C)[C@@H](O[C@H]2C[C@@](C)(OC)[C@@H](O)[C@H](C)O2)[C@H](C)[C@@H](O[C@@H]2O[C@H](C)C[C@H](N(C)C)[C@H]2O)[C@](C)(OC)C[C@@H](C)C(=O)[C@H](C)[C@@H](O)[C@]1(C)O,20066,3.13 µg/mL
O=C(c1ccncc1)N(/N=C/c1ccc(Cl)cc1)C(=O)c1cnccn1,ATCC 13950,>16 µg/mL
C[C@@H](O)[C@H]1C(=O)N2C(C(=O)O)=C(SCCN=CN)C[C@H]12,CIPT 140310034,<5 µg/mL
CC[C@H]1OC(=O)[C@H](C)[C@@H](OC2C[C@@](C)(OC)[C@@H](OC(C)=O)[C@H](C)O2)[C@H](C)[C@@H](O[C@@H]2O[C@H](C)C[C@H](N(C)C)[C@H]2O)C(C)(O)C[C@@H](C)/C(=N\OCCCOc2ccccc2)[C@H](C)[C@@H](O)[C@]1(C)O,20066 (clarithromycin-susceptible),0.78 µg/mL
CC[C@H]1OC(=O)[C@H](C)[C@@H](OC2C[C@@](C)(OC)[C@@H](O)[C@H](C)O2)[C@H](C)[C@@H](O[C@@H]2O[C@H](C)C[C@H](N(C)C)[C@H]2O)C(C)(O)C[C@@H](C)/C(=N\OCCCCc2ccccc2)[C@H](C)[C@@H](O)[C@]1(C)O,20066,1.56 µg/mL
CC1(C)S[C@@H]2[C@H](NC(=O)C(C(=O)O)c3ccccc3)C(=O)N2[C@H]1C(=O)O,CIPT 140310031,15 µg/mL
CC/C=C/CCNC(=O)O[C@H]1C(O[C@@H]2[C@@H](C)[C@H](O[C@H]3C[C@@](C)(OC)[C@@H](OC(C)=O)[C@H](C)O3)[C@@H](C)C(=O)O[C@H](CC)[C@@](C)(O)[C@H](O)[C@@H](C)/C(=N/OCCCC3CCCCC3)[C@H](C)CC2(C)O)O[C@H](C)C[C@@H]1N(C)C,20067,0.2 µg/mL
CCCCCCCS/C(N)=N/N=C/c1ccc2ccccc2n1,CNCT D39/93,16 µM
CC(C)(C)OCOC(=O)c1cnccn1,ATCC 13950,100 µg/mL
CC[C@H]1OC(=O)[C@H](C)[C@@H](OC2C[C@@](C)(OC)[C@@H](O)[C@H](C)O2)[C@H](C)[C@@H](O[C@@H]2O[C@H](C)C[C@H](N(C)C)[C@H]2O)C(C)(O)C[C@@H](C)/C(=N\OCc2ccccc2)[C@H](C)[C@@H](O)[C@]1(C)O,20066,6.25 µg/mL
COc1c(O)c2c(=O)cc(OC)c3c4c(OC)cc(=O)c5c(O)c(OC)c6c(c(c1CC(C)=C6OC(C)=O)c23)c54,-,>100 µg/mL
CC[C@H]1OC(=O)[C@H](C)[C@@H](OC2C[C@@](C)(OC)[C@@H](O)[C@H](C)O2)[C@H](C)[C@@H](O[C@@H]2O[C@H](C)C[C@H](N(C)C)[C@H]2O)C(C)(O)C[C@@H](C)/C(=N\OCCc2cccs2)[C@H](C)[C@@H](O)[C@]1(C)O,20066,3.13 µg/mL
Clc1ccc2c(c1)nc1cc(Nc3ccccc3)c(=NC3CCCCC3)cc-1n2-c1ccccc1,P2,1 µg/mL
CC[C@H]1OC(=O)[C@H](C)[C@@H](O[C@H]2C[C@@](C)(OC)[C@@H](OC(C)=O)[C@H](C)O2)[C@H](C)[C@@H](O[C@@H]2O[C@H](C)C[C@H](N(C)C)[C@H]2OC(=O)NNCc2cccc([N+](=O)[O-])c2)C(C)(O)C[C@@H](C)/C(=N\OCCCC2CCCCC2)[C@H](C)[C@@H](O)[C@]1(C)O,20066 (clarithromycin-susceptible),0.39 µg/mL
CCS/C(N)=N/N=C/c1nc2ccccc2o1,CNCT D39/93,125 µM
COc1ccc(/C=N/N(C(=O)c2ccncc2)C(=O)c2cnccn2)cc1,ATCC 13950,>16 µg/mL
COc1cc(C(=N)N)ccc1OC/C=C\COc1ccc(C(=N)N)cc1OC,ATCC 23068,50 µg/mL
CCCC(C)S/C(N)=N/N=C/c1ccc2ccccc2n1,CNCTC D38/92,63 µM
N/C(=N\N=C\c1ccccn1)c1cnccn1,-,>16 µg/mL
CCNC(=O)[C@@H](NC(=O)Cc1ccccc1)[C@@H]1N[C@@H](C(=O)NCCNC(=O)[C@@H]2N[C@@H]([C@H](NC(=O)Cc3ccccc3)C(=O)NCC)SC2(C)C)C(C)(C)S1,CIPT 140310034,25 µg/mL
CCCCCCCCCCCCCCO/N=C1\[C@H](C)CC(C)(O)[C@H](O[C@@H]2O[C@H](C)C[C@H](N(C)C)[C@H]2O)[C@@H](C)[C@H](OC2C[C@@](C)(OC)[C@@H](O)[C@H](C)O2)[C@@H](C)C(=O)O[C@H](CC)[C@@](C)(O)[C@H](O)[C@H]1C,20066,>50 µg/mL
O=C(c1ccncc1)N(/N=C/c1ccc(Cl)cc1Cl)C(=O)c1cnccn1,ATCC 13950,>16 µg/mL
CC[C@H]1OC(=O)[C@H](C)[C@@H](OC(=O)CCc2ccccc2)[C@H](C)[C@@H](O[C@@H]2O[C@H](C)C[C@H](N(C)C)[C@H]2O)C(C)(O)C[C@@H](C)/C(=N\OCCCOc2ccccc2)[C@H](C)[C@@H](O)[C@]1(C)O,20066 (clarithromycin-susceptible),3.13 µg/mL
CC(C)=CCc1cc(O)c(O)c(CC=C(C)C)c1-c1oc2c(CC=C(C)C)c(O)cc(O)c2c(=O)c1O,ATCC 23068,>100 µg/mL
COc1cc(NC(C)CCCN)c2nc(C(C)(C)C)ccc2c1Oc1cccc(C(F)(F)F)c1,-,5 µg/mL
CCC1Cn2cc([N+](=O)[O-])nc2O1,3 isolates,>250 µg/mL
CC[C@H]1OC(=O)[C@H](C)[C@@H](O[C@H]2C[C@@](C)(OC)[C@@H](OC(C)=O)[C@H](C)O2)[C@H](C)[C@@H](OC2O[C@H](C)C[C@H](N(C)C)[C@H]2OC(=O)NC)C(C)(O)C[C@@H](C)/C(=N\OCCCC2CCCCC2)[C@H](C)[C@@H](O)[C@]1(C)O,20067,1.56 µg/mL
CCC(=O)O[C@H]1[C@H](C)OC(O[C@H]2[C@H](C)[C@@H](O[C@@H]3O[C@H](C)C[C@H](N(C)C)[C@H]3O)C(C)(O)C[C@@H](C)/C(=N\OCCCOc3ccccc3)[C@H](C)[C@@H](O)[C@](C)(O)[C@@H](CC)OC(=O)[C@@H]2C)C[C@@]1(C)OC,20066 (clarithromycin-susceptible),0.78 µg/mL
CO[C@H]1/C=C/O[C@@]2(C)Oc3c(C)c(O)c4c(O)c(c5c(c4c3C2=O)NC2(CCN(CC(C)C)CC2)N=5)=NC(=O)/C(C)=C\C=C\[C@H](C)[C@H](O)[C@@H](C)[C@@H](O)[C@@H](C)[C@H](OC(C)=O)[C@@H]1C,109,0.5 µg/mL
CC[C@H]1OC(=O)[C@H](C)[C@@H](O[C@H]2C[C@@](C)(OC)[C@@H](OC(C)=O)[C@H](C)O2)[C@H](C)[C@@H](OC2O[C@H](C)C[C@H](N(C)C)[C@H]2OC(=O)NCC(=O)NC)C(C)(O)C[C@@H](C)/C(=N\OCCCC2CCCCC2)[C@H](C)[C@@H](O)[C@]1(C)O,20067,1.56 µg/mL
N/C(=N\N=C\c1nc2ccc([N+](=O)[O-])cc2o1)c1cnccn1,-,>16 µg/mL
N[C@@H]1CN(c2c(F)cc3c(=O)c(C(=O)O)cn([C@@H]4C[C@@H]4F)c3c2Cl)CC12CC2,-,6.25 µg/mL
CC[C@H]1OC(=O)[C@H](C)[C@@H](OC2C[C@@](C)(OC)[C@@H](O)[C@H](C)O2)[C@H](C)[C@@H](O[C@@H]2O[C@H](C)C[C@H](N(C)C)[C@H]2O)C(C)(O)C[C@@H](C)/C(=N\OCCCCOc2ccccc2)[C@H](C)[C@@H](O)[C@]1(C)O,20066,3.13 µg/mL
CC[C@H]1OC(=O)[C@H](C)[C@@H](O[C@H]2C[C@@](C)(OC)[C@@H](OC(C)=O)[C@H](C)O2)[C@H](C)[C@@H](O[C@@H]2O[C@H](C)C[C@H](N(C)C)[C@H]2O)C(C)(O)C[C@@H](C)/C(=N\OCCN(C)c2ccccc2)[C@H](C)[C@@H](O)[C@]1(C)O,20066 (clarithromycin-susceptible),3.13 µg/mL
C#CCNC(=O)O[C@H]1C(O[C@@H]2[C@@H](C)[C@H](O[C@H]3C[C@@](C)(OC)[C@@H](OC(C)=O)[C@H](C)O3)[C@@H](C)C(=O)O[C@H](CC)[C@@](C)(O)[C@H](O)[C@@H](C)/C(=N/OCCCC3CCCCC3)[C@H](C)CC2(C)O)O[C@H](C)C[C@@H]1N(C)C,20073,0.39 µg/mL
CCCCNNC(=O)O[C@H]1[C@H](O[C@@H]2[C@@H](C)[C@H](O[C@H]3C[C@@](C)(OC)[C@@H](OC(C)=O)[C@H](C)O3)[C@@H](C)C(=O)O[C@H](CC)[C@@](C)(O)[C@H](O)[C@@H](C)/C(=N/OCCCC3CCCCC3)[C@H](C)CC2(C)O)O[C@H](C)C[C@@H]1N(C)C,20066 (clarithromycin-susceptible),0.78 µg/mL
N/C(=N\N=C\c1cc2ccccc2o1)c1cnccn1,-,>16 µg/mL
CCCCS/C(N)=N/N=C/c1ccc2ccccc2n1,CNCT D39/93,63 µM
CC[C@H]1OC(=O)[C@H](C)[C@@H](O[C@H]2C[C@@](C)(OC)[C@@H](OC(C)=O)[C@H](C)O2)[C@H](C)[C@@H](O[C@@H]2O[C@H](C)C[C@H](N(C)C)[C@H]2O)C(C)(O)C[C@@H](C)/C(=N\OC)[C@H](C)[C@@H](O)[C@]1(C)O,20066 (clarithromycin-susceptible),12.5 µg/mL

Repeating the first 5 entries:

COc1cc(/C=N/N(C(=O)c2ccncc2)C(=O)c2cnccn2)ccc1O ; strain: ATCC 13950 ; value: >16 µg/mL
CC[C@H]1OC(=O)[C@H](C)[C@@H](O[C@H]2C[C@@](C)(OC)[C@@H](O)[C@H](C)O2)[C@H](C)[C@@H](O[C@@H]2O[C@H](C)C[C@H](N(C)C)[C@H]2O)[C@](C)(OC)C[C@@H](C)C(=O)[C@H](C)[C@@H](O)[C@]1(C)O ; strain: 20066 ; value: 3.13 µg/mL
O=C(c1ccncc1)N(/N=C/c1ccc(Cl)cc1)C(=O)c1cnccn1 ; strain: ATCC 13950 ; value: >16 µg/mL
C[C@@H](O)[C@H]1C(=O)N2C(C(=O)O)=C(SCCN=CN)C[C@H]12 ; strain: CIPT 140310034 ; value: <5 µg/mL
CC[C@H]1OC(=O)[C@H](C)[C@@H](OC2C[C@@](C)(OC)[C@@H](OC(C)=O)[C@H](C)O2)[C@H](C)[C@@H](O[C@@H]2O[C@H](C)C[C@H](N(C)C)[C@H]2O)C(C)(O)C[C@@H](C)/C(=N\OCCCOc2ccccc2)[C@H](C)[C@@H](O)[C@]1(C)O ; strain: 20066 (clarithromycin-susceptible) ; value: 0.78 µg/mL